Assay results as given in US7148243B2, “Antivirals” (Medivir AB, priority 1998, dated 2006).

Tested on: HIV wild type
Assay type: cell-based
Conditions: for SI (calculated therapeutic index): dose producing 50% toxicity in HIV-free cells divided by the ED50, initial data; for SI (calculated therapeutic index) 50% serum: 50% human serum, 50% toxicity dose in HIV-free cells divided by the ED50

SMILES: CCC(=O)c1ccc(F)c(C2CC2NC(=O)Nc2ccc(C#N)cn2)c1O (racemic) [Example 5, (±)N-[cis-2-(2-(6-fluoro-2-hydroxy-3-propionylphenyl)-cyclopropyl]-N′-(5-cyanopyrid-2-yl)-urea]
- SI (calculated therapeutic index): >41 600

SMILES: CCC(=O)c1ccc(F)c(C2CC2NC(=O)Nc2ccc(Cl)cn2)c1O (racemic) [Prior art, (+/−)—N-(cis-2-(6-fluoro-2-hydroxy-3-propionylphenyl)-cyclopropyl)-N′-(5-chloropyridyl-2-yl)-urea, reference compound]
- SI (calculated therapeutic index) 50% serum: 800
- SI (calculated therapeutic index): 5 900

SMILES: CCC(=O)c1ccc(F)c([C@H]2C[C@H]2NC(=O)Nc2ccc(C#N)cn2)c1O (stereo in doubt) [Example 6, (1R,2R)-N-(cis-2-(6-fluoro-2-hydroxy-3-propionylphenyl)-cyclopropyl)-N′-(5-cyanopyridy-2-yl)-urea]
- SI (calculated therapeutic index) 50% serum: 8 830
- SI (calculated therapeutic index): 22 500

SMILES: CCC(=O)c1ccc(F)c([C@@H]2C[C@@H]2NC(=O)Nc2ccc(C#N)cn2)c1O (stereo in doubt) [Example 8, (1 S,2S)-N-(cis-2-(6-fluoro-2-hydroxy-3-propionoylphenyl)-cyclopropyl)-N′-(5-cyanopyrid-2-yl)-urea]
- SI (calculated therapeutic index) 50% serum: 4 285
- SI (calculated therapeutic index): 87 000
